Biological target: ACE-2-Fc fusion protein (human) (UniProt Q9BYF1)
Test: BLI
Conditions: domain or fragment

Sequences of proteins named here, by UniProt entry; tags and fusion partners are left off. Residues count along the entry.
UniProt Q9BYF1, 18-740: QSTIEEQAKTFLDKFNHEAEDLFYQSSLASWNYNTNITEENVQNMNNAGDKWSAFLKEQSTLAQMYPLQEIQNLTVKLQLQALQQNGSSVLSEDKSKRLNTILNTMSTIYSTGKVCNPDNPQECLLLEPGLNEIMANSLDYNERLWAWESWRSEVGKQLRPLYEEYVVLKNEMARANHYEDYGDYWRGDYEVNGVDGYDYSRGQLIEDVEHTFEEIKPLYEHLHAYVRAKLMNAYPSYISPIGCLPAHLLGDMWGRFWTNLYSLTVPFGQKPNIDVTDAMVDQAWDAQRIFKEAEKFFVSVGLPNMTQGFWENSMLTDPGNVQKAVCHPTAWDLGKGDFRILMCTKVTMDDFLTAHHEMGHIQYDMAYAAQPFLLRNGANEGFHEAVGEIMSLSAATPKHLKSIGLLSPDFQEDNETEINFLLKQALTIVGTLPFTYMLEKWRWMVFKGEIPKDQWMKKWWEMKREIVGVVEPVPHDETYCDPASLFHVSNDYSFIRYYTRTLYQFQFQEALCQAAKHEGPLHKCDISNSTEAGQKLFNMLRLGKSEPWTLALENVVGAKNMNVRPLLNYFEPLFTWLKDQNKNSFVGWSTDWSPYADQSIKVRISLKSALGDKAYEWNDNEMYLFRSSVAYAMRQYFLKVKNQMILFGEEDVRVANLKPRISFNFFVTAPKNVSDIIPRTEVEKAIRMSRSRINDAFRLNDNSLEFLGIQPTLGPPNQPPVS

SARS-CoV-2 RBD wt
koff: 0.00566 s⁻¹

From PMC11666439
